The other results are listed elsewhere or left out. Entries with a potency or affinity are not part of this list. Calls of active or inactive are those of the source. No stated cut-off is given here; in the data, inconclusive means inhibition above about 29% without an active follow-up result; inactive means below that.

Sequences of proteins named here, by UniProt entry; tags and fusion partners are left off.
UniProt P29991, whole entry, looked up: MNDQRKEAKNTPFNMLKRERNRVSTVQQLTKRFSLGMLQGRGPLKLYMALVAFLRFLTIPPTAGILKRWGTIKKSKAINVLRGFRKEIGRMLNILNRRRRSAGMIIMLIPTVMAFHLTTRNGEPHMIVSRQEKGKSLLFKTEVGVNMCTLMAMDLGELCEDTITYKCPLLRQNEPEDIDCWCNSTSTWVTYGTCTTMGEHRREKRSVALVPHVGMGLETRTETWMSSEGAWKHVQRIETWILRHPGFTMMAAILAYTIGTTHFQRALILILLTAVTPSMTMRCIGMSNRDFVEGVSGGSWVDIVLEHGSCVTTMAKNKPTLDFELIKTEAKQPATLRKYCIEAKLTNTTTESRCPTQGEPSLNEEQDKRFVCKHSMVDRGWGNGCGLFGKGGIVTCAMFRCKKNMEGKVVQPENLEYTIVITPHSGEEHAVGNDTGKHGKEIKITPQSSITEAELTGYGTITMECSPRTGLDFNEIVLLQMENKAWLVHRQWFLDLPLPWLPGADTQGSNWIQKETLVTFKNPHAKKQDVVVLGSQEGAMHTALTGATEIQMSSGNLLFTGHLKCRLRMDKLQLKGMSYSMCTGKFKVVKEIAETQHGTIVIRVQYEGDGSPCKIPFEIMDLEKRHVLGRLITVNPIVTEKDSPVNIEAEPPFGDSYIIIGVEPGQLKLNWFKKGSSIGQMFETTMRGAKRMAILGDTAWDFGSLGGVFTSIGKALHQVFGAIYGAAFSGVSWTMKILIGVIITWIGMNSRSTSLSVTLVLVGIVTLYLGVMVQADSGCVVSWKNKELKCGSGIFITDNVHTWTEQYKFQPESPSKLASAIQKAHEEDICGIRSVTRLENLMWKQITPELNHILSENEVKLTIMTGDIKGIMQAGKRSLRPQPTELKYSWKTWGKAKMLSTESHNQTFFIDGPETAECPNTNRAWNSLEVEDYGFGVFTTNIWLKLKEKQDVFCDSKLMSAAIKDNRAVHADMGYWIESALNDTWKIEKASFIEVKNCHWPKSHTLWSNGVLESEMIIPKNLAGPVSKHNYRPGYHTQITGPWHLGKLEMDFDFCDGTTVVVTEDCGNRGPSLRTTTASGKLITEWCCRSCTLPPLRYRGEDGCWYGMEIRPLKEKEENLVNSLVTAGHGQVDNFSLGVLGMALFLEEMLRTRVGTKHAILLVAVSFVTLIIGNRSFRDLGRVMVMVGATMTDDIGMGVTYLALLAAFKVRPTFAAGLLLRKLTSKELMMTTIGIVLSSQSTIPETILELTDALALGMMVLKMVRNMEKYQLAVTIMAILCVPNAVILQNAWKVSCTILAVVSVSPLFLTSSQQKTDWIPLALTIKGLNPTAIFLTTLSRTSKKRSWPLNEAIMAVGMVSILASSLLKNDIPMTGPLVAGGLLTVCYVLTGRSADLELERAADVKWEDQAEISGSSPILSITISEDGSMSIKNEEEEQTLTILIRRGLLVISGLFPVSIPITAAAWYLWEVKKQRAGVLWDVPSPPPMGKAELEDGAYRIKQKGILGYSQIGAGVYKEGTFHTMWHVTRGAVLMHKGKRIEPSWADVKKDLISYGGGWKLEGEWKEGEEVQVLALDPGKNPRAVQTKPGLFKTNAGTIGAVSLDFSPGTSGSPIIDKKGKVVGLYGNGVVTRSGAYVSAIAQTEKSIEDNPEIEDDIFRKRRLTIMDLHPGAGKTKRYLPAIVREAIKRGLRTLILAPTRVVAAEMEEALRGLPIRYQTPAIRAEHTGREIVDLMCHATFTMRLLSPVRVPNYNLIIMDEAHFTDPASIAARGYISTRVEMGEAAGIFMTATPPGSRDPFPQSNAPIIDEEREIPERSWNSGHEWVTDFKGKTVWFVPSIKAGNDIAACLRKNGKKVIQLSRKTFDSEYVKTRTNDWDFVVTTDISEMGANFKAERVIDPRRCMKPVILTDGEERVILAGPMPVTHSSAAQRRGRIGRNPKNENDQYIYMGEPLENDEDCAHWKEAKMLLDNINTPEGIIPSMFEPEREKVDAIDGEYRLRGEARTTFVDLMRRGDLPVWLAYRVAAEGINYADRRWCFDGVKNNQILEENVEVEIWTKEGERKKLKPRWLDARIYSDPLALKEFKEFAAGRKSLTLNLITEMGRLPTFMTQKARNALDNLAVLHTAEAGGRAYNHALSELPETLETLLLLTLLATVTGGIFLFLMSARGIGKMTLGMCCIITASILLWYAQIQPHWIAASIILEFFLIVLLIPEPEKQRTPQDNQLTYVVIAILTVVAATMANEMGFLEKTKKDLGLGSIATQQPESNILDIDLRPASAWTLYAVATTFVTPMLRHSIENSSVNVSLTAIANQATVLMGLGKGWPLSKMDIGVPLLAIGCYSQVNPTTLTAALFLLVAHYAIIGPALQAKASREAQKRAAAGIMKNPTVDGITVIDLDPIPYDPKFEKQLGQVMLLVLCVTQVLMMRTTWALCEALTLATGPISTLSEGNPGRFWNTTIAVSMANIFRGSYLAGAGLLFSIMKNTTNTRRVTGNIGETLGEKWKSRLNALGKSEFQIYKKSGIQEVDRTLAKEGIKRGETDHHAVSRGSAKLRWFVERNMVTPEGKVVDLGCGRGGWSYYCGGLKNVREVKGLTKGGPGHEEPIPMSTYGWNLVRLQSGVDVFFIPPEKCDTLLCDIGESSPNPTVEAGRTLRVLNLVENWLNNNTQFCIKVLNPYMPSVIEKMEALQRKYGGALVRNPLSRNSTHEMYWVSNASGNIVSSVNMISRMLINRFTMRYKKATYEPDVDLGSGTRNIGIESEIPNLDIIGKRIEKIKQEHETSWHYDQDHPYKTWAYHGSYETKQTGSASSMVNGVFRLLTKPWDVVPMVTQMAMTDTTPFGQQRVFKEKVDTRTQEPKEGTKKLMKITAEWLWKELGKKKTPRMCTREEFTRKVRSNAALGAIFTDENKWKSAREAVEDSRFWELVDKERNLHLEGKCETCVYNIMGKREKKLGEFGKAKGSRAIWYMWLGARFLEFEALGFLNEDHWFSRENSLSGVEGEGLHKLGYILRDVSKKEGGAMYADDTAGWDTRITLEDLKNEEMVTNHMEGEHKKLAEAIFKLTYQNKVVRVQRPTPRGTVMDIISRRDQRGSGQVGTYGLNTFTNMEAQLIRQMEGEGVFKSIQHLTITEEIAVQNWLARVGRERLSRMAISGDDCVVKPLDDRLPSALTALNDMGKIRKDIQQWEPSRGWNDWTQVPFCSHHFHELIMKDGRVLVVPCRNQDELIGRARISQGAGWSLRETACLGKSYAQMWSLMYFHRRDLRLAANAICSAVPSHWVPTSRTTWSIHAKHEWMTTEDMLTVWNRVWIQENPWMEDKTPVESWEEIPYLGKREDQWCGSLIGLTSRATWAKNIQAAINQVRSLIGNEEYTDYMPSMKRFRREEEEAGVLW

The target in this test is Genome polyprotein (Dengue virus type 2 (strain 16681-PDK53)) (UniProt P29991). As to the kind of experiment: flavivirus cap methylation enzyme inhibition – biochemical, confirmation dose response, primary screen (AID 588689). The conditions noted are these: Dengue-2 NS5 methyltransferase capping enzyme assay, at 25 µM, active compounds read high.
The term inhibition denotes the change of the read-out against control, counted positive when it falls. In the case of `O=C(O)C(=O)c1ccc(N(CCCl)CCCl)cc1`, the inhibition is inactive: -2.28%.
For `O=C(COc1ccccc1)OC1CN2CCC1CC2` (centres undefined), the inhibition is inactive: -0.8%.
As for `O=C(Nc1ccncc1[N+](=O)[O-])c1ccc([N+](=O)[O-])cc1[N+](=O)[O-]`, the inhibition is inactive: 0.65%.
`COP1(=S)c2c(C)nn(CCC#N)c2N=C(c2ccc(F)cc2)N1C` (centres undefined): the inhibition is inactive: 1.4%.
As for `CCC(C)N(CC(C)C)C(=S)SC(NC(C)=O)C(Cl)(Cl)Cl` (centres undefined), the inhibition is inactive: -2.45%.
On to `O=C(OC1CN2CCC1CC2)c1cccc([N+](=O)[O-])c1` (centres undefined), for which the inhibition is inactive: -12.4%.
The result for `CSc1ccc(Nc2c([N+](=O)[O-])cc([N+](=O)[O-])cc2[N+](=O)[O-])cc1` reads inactive: 32.2%.
`CCOC(=O)c1ccc(NC(=O)C(C)(CCl)SC)cc1` (centres undefined): the inhibition is inactive: -3.11%.
To `COP(=O)(OC)N1CC1c1ccccc1` (centres undefined) belongs inactive: 4.6%; to `CCCCOc1ccc(C(=O)NCC2(N3CCCCC3)CCCCC2)cc1OC`, inactive: -9.98%; to `Cc1cc(SC(NC(=O)c2ccccc2)C(Cl)(Cl)Cl)nc(C(C)C)n1` (centres undefined), inactive: 5.48%.
Regarding `O=C(O)C(O)c1ccc(N(CCCl)CCCl)cc1` (centres undefined), the inhibition was inactive: -1.71%.
Turning to `CCOC(=O)Nc1ccc([As](=O)(O)O)c(O)c1`, the inhibition is inactive: -9.13%.
On to `CC1CCNP(=O)(N(CCCl)CCCl)O1` (centres undefined), for which the inhibition is inactive: 3.1%.
To `Cc1cc(SC(NC=O)C(Cl)(Cl)Cl)ncn1` (centres undefined) belongs inactive: 0%; to `O=P(Nc1ccccn1)(c1cccc2ccccc12)c1cccc2ccccc12`, inactive: 0%.
Take `O=[N+]([O-])c1ccc(Nc2ccc(Oc3ccc([N+](=O)[O-])cc3[N+](=O)[O-])cc2)c([N+](=O)[O-])c1`: the inhibition is inactive: -5.22%.
As to `CCOC(=O)Nc1cccc([As](=O)(O)O)c1`, the inhibition was inactive: -3.92%.
Consider `O=C(Nc1cc([As](=O)(O)O)ccc1O)c1ccccc1`, for which the inhibition is inactive: 0%.
With `O=P1(N(CCCl)CCCl)OCCCS1` (centres undefined), the inhibition is inactive: -1.55%.
As for `O=C(O)CNc1ccc([As](=O)(O)O)cc1`, the inhibition is inactive: -0.65%.
As for `COC(=O)C1(C)COP(=O)(Nc2ccccc2)OC1` (centres undefined), the inhibition is inactive: 8.87%.
The result for `O=[N+]([O-])c1cccc(NC2=NCC(CBr)S2)c1` (centres undefined) reads inactive: -1.53%; that for `O=[N+]([O-])c1ncn(CCn2ncnc2[N+](=O)[O-])n1`, inactive: -7.64%; that for `CC(C)(C)C(=O)NC(Sc1ccncn1)C(Cl)(Cl)Cl` (centres undefined), inactive: -19.3%.
Consider `Cc1ccc(NP(=O)(Oc2ccccc2)Oc2ccccc2)nc1`, for which the inhibition was inactive: -3.7%.
As for `O=[N+]([O-])c1cc([N+](=O)[O-])c(CCNc2ccccc2)c([N+](=O)[O-])c1`, the inhibition was inactive: 0%.
Take `CCc1nc2c(n1)c1c(non1O)c1c2no[n+]1[O-]`: the inhibition is inactive: 0.68%.
For `CC(=O)N1C2C3N(C(C)=O)C1C1N(C(C)=O)C(C(N1C(C)=O)N3C(C)=O)N2C(C)=O`, the inhibition was inactive: 3.75%.
As to `O=[N+]([O-])c1cccc2n[nH]nc12`, the inhibition is inactive: 7.16%.
With `COc1ccc(C2=NCC(CBr)S2)cc1` (centres undefined), the inhibition was inactive: -5.31%.
In the case of `CC1CCN(C(=O)Oc2c(Cl)cc(Cl)c3cccnc23)CC1`, the inhibition is inactive: -6.17%.
On to `c1cc(-c2nn[nH]n2)ccc1-c1nn[nH]n1`, for which the inhibition was inactive: 4.57%.
The result for `CC(C)c1nc(Nc2ccccc2)n(P(=O)(N(C)C)N(C)C)n1` reads inactive: 1.15%; that for `CC(C)=N/N=C(\N)N[N+](=O)[O-]`, inactive: -5.89%.
The result for `CN(C)C(=O)OCCc1n(C)cc[n+]1C` reads inactive: -7.71%.
The result for `CCN(/C(=N/P(=O)(N1CCOCC1)N1CCOCC1)N1CCOCC1)c1ccc(OC)cc1` reads inactive: -4.51%; that for `Nc1ccc([As](=O)(O)c2ccc(N)cc2)cc1`, inactive: -15.7%; that for `C[N+]1=C2C=CC=CC=C2SC12C([N+](=O)[O-])=CC([N+](=O)[O-])=C[C-]2[N+](=O)[O-]` (centres undefined), inactive: 47.3%.
Consider `CN1CCCC(OC(=O)C(c2ccccc2)c2ccccc2)C1` (centres undefined), for which the inhibition was inactive: -4%.
For the molecule `Clc1ccc(Cl)c(NC2=NCC(CBr)S2)c1` (centres undefined), the inhibition is inactive: -1.64%.
Consider `COc1ccccc1OP(=O)(Nc1ccc(C)cn1)Oc1ccccc1OC`, for which the inhibition was inactive: 2.21%.
For `CN(C(=O)Cc1ccc(Cl)c(Cl)c1)[C@H]1CCCC[C@H]1N1CCCC1`, the inhibition is inactive: -1.49%.
To `Cc1ccc(N/C(=N/P(=O)(N2CCOCC2)N2CCOCC2)N2CCOCC2)cc1` belongs inactive: 7.02%; to `NC(=O)c1cc([N+](=O)[O-])cc([N+](=O)[O-])c1N`, inactive: -10.1%; to `Oc1ccccc1CNc1ccccn1`, inactive: -0.69%.
For `O=C(NC(Sc1ccncn1)C(Cl)(Cl)Cl)c1ccccc1` (centres undefined), the inhibition was inactive: -3.9%.
`Nc1cc(N)c2nonc2c1[N+](=O)[O-]`: the inhibition was inactive: -4.59%.
`CC(C)CC(=O)NC(Sc1ccc(Cl)cc1)C(Cl)(Cl)Cl` (centres undefined): the inhibition was inactive: 0%.
On to `Cc1cc(SC(NC(=O)c2ccc(F)cc2)C(Cl)(Cl)Cl)ncn1` (centres undefined), for which the inhibition is inactive: -11.8%.
With `CCOP(=O)(Nc1ccccc1)OCC`, the inhibition was inactive: 8.57%.
Consider `CN(C(=O)Cc1ccc(Cl)c(Cl)c1)[C@H]1CCCC[C@@H]1N1CCCC1`, for which the inhibition was inactive: 1.47%.
As for `Cc1ccc(NP(=O)(Oc2ccccc2F)Oc2ccccc2F)nc1`, the inhibition was inactive: 2.32%.
For the molecule `O=P(Nc1nc2ccc(Cl)cc2s1)(c1ccccc1)c1ccccc1`, the inhibition is inactive: 6.96%.
Consider `CN(C)P(=O)(N(C)C)n1c(Nc2ccccc2)nnc1-c1ccccc1`, for which the inhibition is inactive: 3.45%.
With `CC(=O)Nc1ccc([As](=O)(O)O)cc1`, the inhibition was inactive: 6.52%.
On to `O=C(O)c1ccccc1[As](=O)(O)O`, for which the inhibition was inactive: 3.91%.
`CCCC1OP(N)(=O)OCC1CC` (centres undefined): the inhibition was inactive: -8.53%.
Consider `Nc1cccc2ccc([As](=O)(O)O)cc12`, for which the inhibition is inactive: 84.5%.
Take `CCN(N=Nc1nonc1N)c1nonc1N`: the inhibition was inactive: 0%.
With `O=P1(N(CCCl)CCCl)OCCC2CCCCN21` (centres undefined), the inhibition is inactive: 2.33%.
To `O=C(NC1CCS(=O)(=O)C1)NP(=S)(Oc1ccccc1)Oc1ccccc1` (centres undefined) belongs inactive: 0.74%; to `CCNC(=S)/N=C(\N)N[N+](=O)[O-]`, inactive: 0%; to `CC(NC(=O)COC(=O)C(O)(c1ccccc1)c1ccccc1)c1ccccc1` (centres undefined), inactive: -2.21%.
As for `Cc1ccccc1OP(=O)(Nc1ccccn1)Oc1ccccc1C`, the inhibition was inactive: 2.35%.
The result for `O=c1c2cc([N+](=O)[O-])ccc2[nH]c2c([N+](=O)[O-])cc([N+](=O)[O-])cc12` reads inactive: -4.69%.
Consider `CN(C)C(=O)Oc1noc2ccccc12`, for which the inhibition was inactive: 3.06%.
For `O=C(OC1CN2CCC1CC2)c1ccccc1` (centres undefined), the inhibition is inactive: -4.52%.
With `CCC(=O)N1C2C3N(C(=O)CC)C1C1N(C(=O)CC)C(C(N1C(=O)CC)N3C(=O)CC)N2C(=O)CC`, the inhibition was inactive: -7.62%.
As for `COC(=O)c1cc2c(s1)N=C(c1ccccc1)N(C)P2(=O)N1CCOCC1` (centres undefined), the inhibition is inactive: 1.07%.
As for `Cc1ccc(OP(=O)(Nc2ccccn2)Oc2ccc(C)cc2)cc1`, the inhibition is inactive: 2.87%.
For `CC(=O)NC(SC(=S)N(CC(C)C)CC(C)C)C(Cl)(Cl)Cl` (centres undefined), the inhibition is inactive: -8.67%.
In the case of `CC(C)(C)C(=O)NC(Sc1ccccc1)C(Cl)(Cl)Cl` (centres undefined), the inhibition is inactive: -0.78%.
Consider `CCc1cc(O)c([N+](=O)[O-])c(C)c1[N+](=O)[O-]`, for which the inhibition is inactive: 3.5%.
For the molecule `O=P1(Nc2nc3ccc(Cl)cc3s2)COc2ccccc2O1` (centres undefined), the inhibition was inactive: -2.42%.
For `CCOc1ccc(C2=NCC(CBr)S2)cc1` (centres undefined), the inhibition is inactive: 4.58%.
As to `CC(=O)Nc1ccc([As](=O)(O)O)c(O)c1`, the inhibition is inactive: 0%.
With `CC(=O)Nc1ccc(Oc2c([N+](=O)[O-])cc([N+](=O)[O-])cc2[N+](=O)[O-])cc1`, the inhibition was inactive: -2.33%.
As for `Cc1ccccc1CN(C)C(=O)COC(=O)C(O)(c1ccccc1)c1ccccc1`, the inhibition is inactive: -0.74%.
For the molecule `C[C@H]1OP(=O)(Oc2ccccc2)C[C@@H]2O[C@@H]21` (some centres undefined), the inhibition is inactive: -5.18%.
Regarding `C[C@@H]1C=CCP(=O)(Oc2ccccc2)O1` (some centres undefined), the inhibition was inactive: 3.51%.
In the case of `CC(=O)c1ccc(N2CC2c2ccncc2)cc1` (centres undefined), the inhibition was inactive: 0%.
Regarding `N#C/C(=C\c1ccc(N(CCBr)CCBr)cc1)C(N)=O`, the inhibition was inactive: -15.1%.
For the molecule `COC(=O)C1(C)COP(=O)(NCc2ccccc2)OC1` (centres undefined), the inhibition is inactive: 4.03%.
As for `c1nnnn1CCn1cnnn1`, the inhibition was inactive: 0%.
On to `O=P(Nc1nccs1)(c1ccccc1)c1ccccc1`, for which the inhibition is inactive: -1.36%.
As for `CC(C)C(=O)NC(Sc1ccccc1)C(Cl)(Cl)Cl` (centres undefined), the inhibition is inactive: 4.16%.
As to `O=P(Nc1nc2ccccc2s1)(c1ccccc1)c1ccccc1`, the inhibition is inactive: -4.02%.
With `C[C@H]1OP(=O)(Oc2ccccc2)[C@H](O)[C@H](O)[C@H]1N=[N+]=[N-]` (some centres undefined), the inhibition is inactive: -8.63%.
The result for `CN(C)C1(CNC(=O)c2ccc(Cl)c(S(N)(=O)=O)c2)CCCCC1` reads inactive: 0%; that for `O=P(Nc1ccccn1)(c1ccc(Br)cc1)c1ccc(Br)cc1`, inactive: -7.17%; that for `COc1ccc(N)c([N+](=O)[O-])c1[N+](=O)[O-]`, inactive: 7.96%.
For `O=C(OC1CN2CCC1CC2)c1cccc(Cl)c1` (centres undefined), the inhibition was inactive: 7.77%.
Turning to `C(Cc1nn[nH]n1)Cc1nn[nH]n1`, the inhibition is inactive: -4.41%.
In the case of `Nc1ccc([As](=O)(O)c2ccc([N+](=O)[O-])cc2)cc1`, the inhibition is inactive: -5.41%.
Take `O=[As](O)(c1ccccc1)c1ccc(O)cc1`: the inhibition was inactive: 0%.
With `O=[N+]([O-])c1ncn(CCn2cnc([N+](=O)[O-])n2)n1`, the inhibition is inactive: -6.77%.
For `CC(=O)NC(SC(=S)N(C)C)C(Cl)(Cl)Cl` (centres undefined), the inhibition is inactive: 0.72%.
For `O=[N+]([O-])c1ccc(O)c(/C=N/Nc2ccc([N+](=O)[O-])cc2[N+](=O)[O-])c1`, the inhibition is inactive: 27.2%.

Source of the values: PubChem BioAssay AID588689 (Southern Research Specialized Biocontainment Screening …, 2011).
